Laboratory results as given in ChEMBL document CHEMBL1127929, “The synthesis and serine -lactamase inhibitory activity of some phosphonamidate analogues of dipeptides” (1994).

Chains of the proteins cited; added tags and fusions are not shown.
UniProt P62593, whole entry: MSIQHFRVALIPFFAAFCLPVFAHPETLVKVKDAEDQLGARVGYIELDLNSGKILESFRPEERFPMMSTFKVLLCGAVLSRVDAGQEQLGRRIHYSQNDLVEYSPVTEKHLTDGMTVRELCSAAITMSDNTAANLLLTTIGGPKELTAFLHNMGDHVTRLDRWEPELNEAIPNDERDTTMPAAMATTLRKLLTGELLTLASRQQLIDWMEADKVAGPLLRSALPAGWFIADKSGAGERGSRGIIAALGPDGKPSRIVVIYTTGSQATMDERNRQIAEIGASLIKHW

What follows are compounds tested against Beta-lactamase TEM (Escherichia coli) (UniProt P62593).

CC1(C)S[C@@H]2[C@H](NC(=O)C(N)c3ccc(O)cc3)C(=O)N2[C@H]1C(=O)O.O=C(NCP(=O)(O)N[C@@H](Cc1ccccc1)C(=O)O)OCc1ccccc1 was tested. Which MIC did it give?
Its MIC is greater than 256 µg/mL.

How did the MIC turn out when CC1(C)S[C@@H]2[C@H](NC(=O)C(N)c3ccc(O)cc3)C(=O)N2[C@H]1C(=O)O.O=C(O)CC(NP(=O)(O)CNC(=O)OCc1ccccc1)c1ccccc1 (stereo unspecified) was run?
The MIC was greater than 256 µg/mL.

For CC1(C)S[C@@H]2[C@H](NC(=O)C(N)c3ccc(O)cc3)C(=O)N2[C@H]1C(=O)O.O=C(NCP(=O)(O)N[C@H](Cc1ccccc1)C(=O)O)OCc1ccccc1, which MIC is on record?
The MIC was greater than 256 µg/mL.

How did the MIC turn out when CC1(C)S[C@@H]2[C@H](NC(=O)C(N)c3ccc(O)cc3)C(=O)N2[C@H]1C(=O)O.O=C(O)CNP(=O)(O)CNC(=O)OCc1ccccc1 (stereo partly specified) was run?
The MIC was greater than 256 µg/mL.

How did the MIC turn out when CC1(C)S[C@@H]2[C@H](NC(=O)C(N)c3ccc(O)cc3)C(=O)N2[C@H]1C(=O)O.O=C(NCP(=O)(O)NC(C(=O)O)c1ccccc1)OCc1ccccc1 (stereo unspecified) was run?
Its MIC is greater than 256 µg/mL.

CC1(C)S[C@@H]2[C@H](NC(=O)C(N)c3ccc(O)cc3)C(=O)N2[C@H]1C(=O)O.O=C(O)CCNP(=O)(O)CNC(=O)OCc1ccccc1 (stereo partly specified) was tested. Which MIC did it give?
Its MIC is greater than 256 µg/mL.
